Measured values from several laboratories, pooled; numbers as filed in NIAID ChemDB.

All rows: host cell toxicity; cell line: MOLT-3; endpoint: CC50

Rows are shuffled and stem from different studies.

structure,method,value
CCO[P+](O)(OCC)[C@@H]1C[C@H](C[N+]2=CC(F)C(=O)NC2=O)N(C)O1,MTS,>1000 µM
Cc1cc(C=O)cc(C)c1Oc1cc(Nc2ccc(C#N)cc2)nc2ccccc12,MTT,11.8 µM
COc1ccc(OCC2OC2COC(=O)c2ccc(O)c(OC)c2)cc1,MTS / tetrazolium / absorbance,241 µM
CC[C@@H]1/C=C(\C)C[C@H](C)C[C@H](OC)[C@H]2O[C@@](O)(C(=O)C(=O)N3CCCC[C@H]3C(=O)O[C@H](/C(C)=C/[C@H]3CC[C@H](O)[C@H](OC)C3)[C@H](C)[C@@H](O)CC1=O)[C@H](C)C[C@@H]2OC,-,20 µg/mL
Cc1ccnc2c1NC(=O)c1cccnc1N2C1CC1,MTS,>1000 µM
O[C@@H]1[C@H](O)CO[C@H]1n1c(Br)nc2cc(Cl)c(Cl)cc21,ATP,85 µM
O=C(OCc1ccccc1)N1OCCC1n1cc(COCc2cn(CCO)nn2)c(=O)[nH]c1=O,MTS,670 µM
OC[C@@H]1O[C@@H](n2c(Br)nc3cc(Cl)c(Cl)cc32)[C@H](O)[C@H]1O,ATP,14 µM
CCO[P+](O)(OCC)[C@H]1C[C@H](C[N+]2=CC(F)C(=O)NC2=O)N(C)O1,MTS,>1000 µM
OC[C@H]1CC(n2c(NC3CC3)nc3cc(Cl)c(Cl)cc32)[C@H](O)[C@@H]1O,ATP,>100 µM
NC(=O)c1c(Cl)c(-c2cccnc2)n2c1CCCC2,-,91.4 µM
O[C@@H]1[C@H](O)CO[C@H]1n1c(NC2CC2)nc2cc(Cl)c(Cl)cc21,ATP,>100 µM
C#CCOCc1cn(C2CCON2C(=O)OCc2ccccc2)c(=O)[nH]c1=O,MTS,>1000 µM
Cc1cc(C#N)cc(C)c1Oc1cc(Oc2c(C)cc(C#N)cc2C)c2ccccc2n1,XTT,≥50 µg/mL
C[C@H]1O[C@@H](n2c(NC3CC3)nc3cc(Cl)c(Cl)cc32)[C@H](O)[C@@H]1O,ATP,>100 µM

A second listing of 2 rows from above:

structure | method | value
Cc1cc(C#N)cc(C)c1Oc1cc(Oc2c(C)cc(C#N)cc2C)c2ccccc2n1 | XTT | ≥50 µg/mL
OC[C@@H]1O[C@@H](n2c(Br)nc3cc(Cl)c(Cl)cc32)[C@H](O)[C@H]1O | ATP | 14 µM

An empty or dashed field is not shown. CCn is the concentration with n% toxicity to the cells.